A mixed list of measured activities; the numbers were collected in NIAID ChemDB.

Shared fields: toxicity to cultured cells; cell line: VERO; read-out: CC50

Neighbouring rows are from separate reports.

SMILES	read by	result
Cc1ccc(S(=O)(=O)/C=C/c2ccc([N+](=O)[O-])o2)cc1		1.56 µg/mL
CC(=O)c1csc(NC(=O)C2C3CC4CC(C3)CC2C4)n1	luminescence	82 µM
O=C(Cc1cccc([N+](=O)[O-])c1)NC1N=C(c2ccccc2)c2ccccc2NC1=O		1.7 µM
CCN(CC)c1ccc2nc3c4ccccc4c(=N)cc-3oc2c1		0.75 µg/mL
COc1ccccc1CC(=O)NC1N=C(c2ccccc2)c2ccccc2NC1=O		5 µM
O=C(Nc1nc(-c2ccccn2)cs1)NC1CCCC1	luminescence	41 µM
O=C1Nc2ccccc2C(c2ccccc2)=NC1NS(=O)(=O)c1ccccc1F		10 µM
NC(=O)c1csc2cc(-c3ccncc3)ccc2c1=O		>100 µg/mL
c1ccc(-c2csc(Nc3cccc4ccccc34)n2)nc1	luminescence	6 µM
CN1CCN(C(=S)S)CC1		0.61 µg/mL
FC(F)(F)c1ccccc1Nc1nc(-c2ccc3ccccc3c2)cs1	luminescence	56 µM
Cc1cc(-c2ccc3c(=O)c(C(N)=O)cn(-c4ccc(F)cc4)c3c2)on1		>100 µg/mL
Cc1cc2nc3ccc(N)cc3oc-2cc1=[N+](C)C		0.98 µg/mL
O=C(NC1N=C(c2ccccc2)c2cc(Cl)ccc2NC1=O)c1cccs1		3 µM
CCn1cc(C(N)=O)c(=O)c2ccc(-c3ccccn3)cc21		>25 µg/mL
COC(=O)[C@H]1[C@H](O)[C@H](C)[C@@H](O)[C@@H](C)/C=C(\C)C2=C3C(=C(C)C(=O)c4c(O)c(c(C)c(OC(C)=O)c43)NC(=O)/C(C)=C/C=C\[C@@H](C)C(O)[C@@H](C)[C@H]1O)OCO2		59.4 µg/mL
CCn1cc(C(=O)NN)c(=O)c2ccc(-c3ccncc3)cc21		>50 µg/mL
C/C(=N/NC(=S)NCc1ccccc1)c1nccnc1C		<0.41 µg/mL
NC(=O)c1cn(-c2ccc(F)cc2)c2cc(Br)ccc2c1=O		>6.25 µg/mL
c1ccc(Nc2nc(-c3cnccn3)cs2)nc1	luminescence	>50 µM
COc1ccc(C=C2C=C(C(C)(C)C)C(=O)C(C(C)(C)C)=C2)cc1		3 µg/mL
NC(=O)c1cn(-c2ccc(F)cc2)c2cc(Cl)ccc2c1=O		>12.5 µg/mL

Again, the opening 2 rows:

SMILES | read by | result
Cc1ccc(S(=O)(=O)/C=C/c2ccc([N+](=O)[O-])o2)cc1 |  | 1.56 µg/mL
CC(=O)c1csc(NC(=O)C2C3CC4CC(C3)CC2C4)n1 | luminescence | 82 µM

An empty or dashed field is not shown. CCn is the concentration with n% toxicity to the cells.